# Test results taken from paper PMC9591056, “Inhibitors of ApiAP2 protein DNA binding exhibit multistage activity against Plasmodium parasites” (PLOS Pathogens, 2022).
# For at least one entry, the source does not settle the construct or the ends of the probe. For some assays here: A negative result means that nothing was seen under these conditions. At least one verdict was read from the data and is not stated in words by the source.
# Tests used:
# Assay in all cases: EMSA
# [1] = target: AP2-EXP AP2 domain (Plasmodium falciparum) (UniProt Q8IKH2); details: DMSO vehicle or no compound; EMSA: 10 mM Tris pH 7.5, 50 mM KCl, 1 mM DTT, 6 mM MgCl2, 60 ng/uL poly dIdC, 65 ng BSA; 125 ng AP2-EXP or PbAP2-Sp, 40-150 fmol probe; 15 min protein + compound; recombinant protein; label: 5' biotin on forward strand
# [2] = system: AP2-HS Domain 1 (Plasmodium falciparum); details: EMSA: 10 mM Tris pH 7.5, 50 mM KCl, 1 mM DTT, 6 mM MgCl2, 60 ng/uL poly dIdC, 65 ng BSA, 125 ng AP2-EXP or PbAP2-Sp, 40-150 fmol probe, 15 min protein + compound, recombinant protein, label: 5' biotin on forward strand
# [3] = system: PfSIP2 Domain 1 (Plasmodium falciparum); details: EMSA: 10 mM Tris pH 7.5, 50 mM KCl, 1 mM DTT, 6 mM MgCl2, 60 ng/uL poly dIdC, 65 ng BSA; 125 ng AP2-EXP or PbAP2-Sp, 40-150 fmol probe; 15 min protein + compound; recombinant protein; label: 5' biotin on forward strand
# [4] = target: AP2-I Domain 3 (Plasmodium falciparum) (UniProt Q8IJW6); details: EMSA: 10 mM Tris pH 7.5, 50 mM KCl, 1 mM DTT, 6 mM MgCl2, 60 ng/uL poly dIdC, 65 ng BSA, 125 ng AP2-EXP or PbAP2-Sp, 40-150 fmol probe, 15 min protein + compound, recombinant protein, label: 5' biotin on forward strand
sequence,measurement,setting,value
ACTACACACCTAACTATGCATGCATCAATATAGTGGATTA (double strand) [AP2-EXP gel shift probe],binding result,[1],binds
TTTTAAAAAAAAAAAAAAAGCCCCGCGGAAAGGGGCCATTGGATATATATTTAGTATTCC (double strand) [AP2-HS gel shift probe],binding result,[2]; 300 uM Compound B,no binding
same,binding result,[2]; 300 uM Compound I,no binding
same,binding result,[2],binds
AGGTGCACCTAGGTGCACCT (double strand) [PfSIP2 gel shift probe],binding result,[3],binds
ATTAATTTAATATGTACGCAAGGTGCACACTGGTGCATTAAAAAAAAAATATATATTAAT (double strand) [AP2-I gel shift probe],binding result,[4]; 300 uM Compound B-2,binds
same,binding result,[4]; 300 uM Compound B-3,binds
same,binding result,[4],binds
